From patent US20240122867A1, “CORONAL PROTEIN-COATED NANOPARTICLES AND USES THEREOF” (UNIVERSITY OF CENTRAL FLORIDA RESEARCH FOUNDATION, INC., priority 2021, published 2024) come the findings set out here.

This series relates to coronal proteins on NPs. More on the design: species or system mouse. Conditions: for V5 Sera_Nanoparticles Quantitative Value (Normalized Total Spectra): 20:1 NP:sera, centrifuged and washed; for V5 Sera Alone (Control) Quantitative Value (Normalized Total Spectra): IAV day 5 (V5) mouse sera alone.
Where [1] appears, read: HBPE-NPs incubated 1 h with IAV day 5 (V5) mouse sera.
Where [2] appears, read: HBPE-NPs incubated with IAV day 5 (V5) mouse sera 1 h.
Setting [3] is: no NPs, mass spectrometry protein identification.

Read-outs that look alike come from different tables or passages of the source.

B1: Inter alpha-trypsin inhibitor, heavy chain 4 (protein, UniProt A6X935 29-942, looked up)
Inter alpha-trypsin …: EKNGIDIYSLTVDSRVSSRFAHTVVTSRVVNRADAVQEATFQVELPRKAFITNFSMIIDGVTYPGVVKEKAEAQKQYSAAVGRGESAGIVKTTGRQTEKFEVSVNVAPGSKITFELIYQELLQRRLGMYELLLKVRPQQLVKHLQMDIYIFEPQGISILETESTFMTPELANALTTSQNKTKAHIRFKPTLSQQQKSQSEQDTVLNGDFIVRYDVNRSDSGGSIQIEEGYFVHHFAPENLPTMSKNVIFVIDKSGSMSGKKIQQTREALVKILKDLSPQDQFNLIEFSGEANQWKQSLVQATEENLNKAVNYASRIRAHGGTNINNAVLLAVELLDRSNQAELLPSKSVSLIILLTDGDPTVGETNPTIIQNNVREAINGQYSLFCLGFGFDVNYPFLEKMALDNGGLARRIYEDSDSALQLQDFYHEVANPLLSSVAFEYPSDAVEEVTRYKFQHHFKGSEMVVAGKLQDQGPDVLLAKVSGQMHMQNITFQTEASVAQQEKEFKSPKYIFHNFMERLWALLTIQQQLEQRISASGAELEALEAQVLNLSLKYNFVTPLTHMVVTKPEGQEQFQVAEKPVEVGDGMQRLPLAAQAHPFRPPVRGSKLMTVLKGSRSQIPRLGDAVRASRQYIPPGFPGPPGPPGFPAPPGPPGFPAPPGPPLASGSDFSLQPSYERMLSLPSVAAQYPADPHLVVTEKSKESTIPEESPNPDHPQVPTITLPLPGSSVDQLCVDILHSEKPMKLFVDPSQGLEVTGKYENTGFSWLEVTIQKPHLQVHATPERLVVTRGRKNTEYKWKKTLFSVLPGLKMTMNMMGLLQLSGPDKVTIGLLSLDDPQRGLMLLLNDTQHFSNNVKGELGQFYRDIVWEPPVEPDNTKRTVKVQGVDYLATRELKLSYQEGFPGAEISCWTVEI
In the case of B1, the “V5 Sera_Nanoparticles Quantitative Value (Normalized Total Spectra)” value under setting [1] came to 35.901. Further, the “V5 Sera Alone (Control) Quantitative Value (Normalized Total Spectra)” value (shortened to “V5 Sera Alone … (Normalized Total Spectra)”) (no NPs (sera-only control)) worked out at 70.317.

B2: Vasculin-like protein 1 (protein, UniProt Q6NZP2 1-473, looked up)
Vasculin-like protein 1: MAQHDFVPAWLNFSTPQSSKSSTATFDKHGEHLSRGEGRFGISRRRHNSSDGFFNNGPLRTTGDSWHQPSLFRHDSVDSGVSKGAYAGTTGWHGSSRGHDGMSQRSGGSSTGNHRHWNGSFHSRKGCAFQEKTPTEIREEKKEDKVEKLQFEEEDFPSLNPEAGKQNQPCRPVGTPSGVWENPPSAKQPSKMLVIKKISKEDPAAAFSAAFTSSGSHHANGNKVSTMVPSVYKNLVPKPAPPPSKPNAWKANRTEHKPGSLCSSRESAFTNPISVTKPVGLAAGAGLHSPKESPSSTTPPIEISSSRLTKLTRRTTDRKSEFLKTLKDERNGDCSESRDCDKLEGLRLEGSHTPEPKENGEQGCLQNGLSLPMVEEGEVLSHSLEAEHRLLKAMGWQEYPENDESCLPLTEDELKEFHLRTEQLRRNGFGKNGLLQSRSCSLSSPWRSTCIAECEDSDSETSSSQTSDDDAWK
Take B2: the “V5 Sera_Nanoparticles Quantitative Value (Normalized Total Spectra)” value under setting [2] was determined as 0. In addition, the “V5 Sera Alone … (Normalized Total Spectra)” value under setting [3] stood at 0.9252.

B3: Keratin, type I cytoskeletal 13 (protein, UniProt P08730 1-437, looked up)
Keratin, type I cytoskeletal …: MSCRFQSSSMSYGGGFGAGSCQLGGGRNISSCSSRFVTGGSAGGYGGGMSCGFGGGAGGGFGGGFGGGFGGSYGGGFGGGFGDFGGVDGGLLSGNEKITMQNLNDRLASYLDKVRALEAANADLEVKIRDWHLKQSPASPERDYSAYYKTIEELRIKILEATTDNNRIILEIDNARLAADDFRLKYENELTLRQSVEADINGLRRVLDELTLAKTDLEMQIESLNEELAYLKKNHEEEMKEFSNQVVGQVNVEMDATPGIDLTRVLAEMREQYEALAEKNRRDAEEWFQTKSAELNKEVSSNAEMIQTSKTEITELRRTLQGLEIELQSQLSMKAGLESTLAETECRYALQLQQIQGLISSIEAQLSELRSEMECQNQEYKMLLDIKTRLEQEIATYRSLLEGQDAKMTGFNSGGNNTTTSNGSPSSNSGRPDFRKY
As to B3, the “V5 Sera_Nanoparticles Quantitative Value (Normalized Total Spectra)” value under setting [2] is 0. Besides, under setting [3], the “V5 Sera Alone … (Normalized Total Spectra)” value worked out at 0.9252.

B4: Bridging integrator 2 (protein, UniProt D3Z6Q9 1-489, looked up)
Bridging integrator 2: MAEGKAGGAAGLFAKQMQKKFSRAQEKVLQKLGKTVETKDERFEQSASNFYQQQAEGHKLYKDLKNFLSAVKVMHESSKRVSETLQEVYSSDWDGHEDLKAIVGNNDLLWEDYEEKLADQALRTMENYVSQFSEIKERIAKRGRKLVDYDSARHHLEAVQNAKKKDDAKMAKAEEDFSKAQIVFEDLNQELLEELPILYNSRIGCYVTVFQNISNLRDVFYREMSKLNHNLYEVMSKLEKQHSNKVFVVKGLSSSSRRSLVISPPVQSCAASSPVSPVSPVSPVTSPTSPSATSEPESVSATGEELTSEAGGEDSCESQESLKDEEADEAQSETSSSLPACNGPTPAPASPAAEVGSQEEALSSSAQSPGRGQTGKDTPSPGDVVLRARASSEGAEQSKRAASIQRTSAPPSRPPPPRASGSGSCNAPGSPEGSSQLCSPRASPDASSNPEPAETREKEGAGSSGPEEPRAVSTKSATQASGGLVGLFL
Turning to B4, the “V5 Sera_Nanoparticles Quantitative Value (Normalized Total Spectra)” value under setting [2] was determined as 0. Moreover, the “V5 Sera Alone … (Normalized Total Spectra)” value under setting [3] worked out at 1.8505.

B5: Vitamin D-binding protein (protein, UniProt P21614 17-476, looked up)
Vitamin D-binding protein: LERGRDYEKDKVCNELAMLGKEDFRSLSLILYSRKFSSSTFEQVNQLVKEVVSLTEECCAEGADPTCYDTRTSELSVKSCESDAPFPVHPGTPECCTKEGLERKLCMAALSHQPQEFPTYVEPTNDEICEAFRRDPKGFADQFLYEYSSNYGQAPLPLLVAYTKNYLSMVGSCCTSANPTVCFVKERLQMKHLSLLTTMSNRVCSQYAAYGKEKSRLSHLIKLAQKVPTANLENVLPLAEDFTEILSRCCESTSEDCMASELPEHTIKICQNLSKKNSKFEECCQENTPMNIFMCTYFMPAAEPLQLPAIKLPTGKDLCGQSTTQAMDQYTFELSRRTQVPEVFLSKVLEPTLKTLRECCDTQDSVACFSTQSPLLKRQLTSFIEKGQEMCADYSENTFTEYKKKLAERLRTKTPNTSPAELKDMVEKHSDFASKCCSINSPPLYCSSQIDAEMIDTLQS
Consider B5, for which the “V5 Sera_Nanoparticles Quantitative Value (Normalized Total Spectra)” value under setting [1] was 33.726. Moreover, the “V5 Sera Alone … (Normalized Total Spectra)” value (no NPs (sera-only control)) is recorded as 36.084.

B6: Tubulin beta-1 chain (protein, UniProt A2AQ07 1-451, looked up)
Tubulin beta-1 chain: MREIVHIQIGQCGNQIGAKFWEVIGEEHGIDCAGSYCGTSALQLERISVYYNEAYGKKYVPRAVLVDLEPGTMDSIRSSRLGVLFQPDSFVHGNSGAGNNWAKGHYTEGAELIENVMDVVRRESESCDCLQGFQIVHSLGGGTGSGMGTLLMNKIREEYPDRILNSFSVMPSPKVSDTVVEPYNAVLSIHQLIENTDACFCIDNEALYDICFRTLRLTTPTYGDLNHLVSLTMSGITTSLRFPGQLNADLRKLAVNMVPFPRLHFFMPGFAPLTAQGSQQYRALSVAELTQQMFDARNIMAACDPRRGRYLTVACIFRGKMSTKEVDQQLLSIQTRNSNCFVEWIPNNVKVAVCDIPPRGLNMAATFLGNNTAIQELFTRVSEHFSAMFRRRAFVHWYTSEGMDISEFGEAESDIHDLVSEYQQFQDVRAGLEDSEEDVEEAEVEAEDKDH
With B6, the “V5 Sera_Nanoparticles Quantitative Value (Normalized Total Spectra)” value under setting [2] came out at 0. Under setting [3], the “V5 Sera Alone … (Normalized Total Spectra)” value is on record as 0.9252.

B7: Tubulin beta-3 chain (protein, UniProt Q9ERD7 1-450, looked up)
Tubulin beta-3 chain: MREIVHIQAGQCGNQIGAKFWEVISDEHGIDPSGNYVGDSDLQLERISVYYNEASSHKYVPRAILVDLEPGTMDSVRSGAFGHLFRPDNFIFGQSGAGNNWAKGHYTEGAELVDSVLDVVRKECENCDCLQGFQLTHSLGGGTGSGMGTLLISKVREEYPDRIMNTFSVVPSPKVSDTVVEPYNATLSIHQLVENTDETYCIDNEALYDICFRTLKLATPTYGDLNHLVSATMSGVTTSLRFPGQLNADLRKLAVNMVPFPRLHFFMPGFAPLTARGSQQYRALTVPELTQQMFDAKNMMAACDPRHGRYLTVATVFRGRMSMKEVDEQMLAIQSKNSSYFVEWIPNNVKVAVCDIPPRGLKMSSTFIGNSTAIQELFKRISEQFTAMFRRKAFLHWYTGEGMDEMEFTEAESNMNDLVSEYQQYQDATAEEEGEMYEDDDEESEAQGPK
Take B7: under setting [2], the “V5 Sera_Nanoparticles Quantitative Value (Normalized Total Spectra)” value is listed as 0. Moreover, the “V5 Sera Alone … (Normalized Total Spectra)” value under setting [3] is on record as 1.8505.
